The values below come from article PMC3230330 (Bioorganic & medicinal chemistry, 2011).

Amino acid sequences for entries named in this document (tags omitted). Residues count along the entry.
UniProt P0DPI0, 2-448 limits assumed: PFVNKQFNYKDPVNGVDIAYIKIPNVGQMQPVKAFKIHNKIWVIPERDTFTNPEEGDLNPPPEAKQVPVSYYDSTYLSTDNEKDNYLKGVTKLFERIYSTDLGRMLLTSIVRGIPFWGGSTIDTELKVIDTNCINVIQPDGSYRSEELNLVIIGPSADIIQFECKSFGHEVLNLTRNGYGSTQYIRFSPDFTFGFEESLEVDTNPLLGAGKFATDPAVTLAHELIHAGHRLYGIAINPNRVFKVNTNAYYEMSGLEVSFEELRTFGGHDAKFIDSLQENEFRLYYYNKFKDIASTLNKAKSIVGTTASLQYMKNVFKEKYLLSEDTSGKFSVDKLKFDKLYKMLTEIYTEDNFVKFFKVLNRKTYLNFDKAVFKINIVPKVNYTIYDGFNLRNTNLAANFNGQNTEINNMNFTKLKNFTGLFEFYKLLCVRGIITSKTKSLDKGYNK
UniProt P15917, 34-809 limits assumed: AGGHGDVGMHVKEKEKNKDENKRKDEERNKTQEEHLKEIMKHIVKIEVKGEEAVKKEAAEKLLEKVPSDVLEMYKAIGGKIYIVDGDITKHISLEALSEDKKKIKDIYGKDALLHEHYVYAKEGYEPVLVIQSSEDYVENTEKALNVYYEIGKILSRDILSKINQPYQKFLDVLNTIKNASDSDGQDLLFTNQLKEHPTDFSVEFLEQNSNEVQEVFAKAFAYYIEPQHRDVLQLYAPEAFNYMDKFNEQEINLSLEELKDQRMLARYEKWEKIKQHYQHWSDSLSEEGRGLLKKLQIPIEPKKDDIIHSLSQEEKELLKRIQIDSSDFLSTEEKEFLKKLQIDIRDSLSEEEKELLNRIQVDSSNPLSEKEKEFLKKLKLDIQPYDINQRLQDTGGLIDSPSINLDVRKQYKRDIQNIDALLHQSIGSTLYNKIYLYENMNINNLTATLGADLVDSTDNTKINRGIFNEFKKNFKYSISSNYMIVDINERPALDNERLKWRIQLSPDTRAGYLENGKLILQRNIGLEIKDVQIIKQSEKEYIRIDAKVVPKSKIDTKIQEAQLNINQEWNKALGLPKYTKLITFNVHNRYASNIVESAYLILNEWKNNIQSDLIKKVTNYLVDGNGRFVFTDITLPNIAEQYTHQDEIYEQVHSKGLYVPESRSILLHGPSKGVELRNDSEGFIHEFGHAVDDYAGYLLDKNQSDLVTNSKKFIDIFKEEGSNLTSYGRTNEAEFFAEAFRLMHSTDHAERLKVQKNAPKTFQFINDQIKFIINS

A value given as a limit tells only on which side of the number the result lay.

As usually defined, the IC50 is the concentration that gives 50% inhibition.

The target of one assay is BoNT/A LC (Clostridium botulinum, UniProt P0DPI0). As to conditions: cited from earlier work.
For a further assay, the target named is Anthrax LF (Bacillus anthracis, UniProt P15917). The format is biochemical. As to conditions: read-out: Anthrax LF IC50.

On to 2,4-dichlorocinnamic hydroxamic acid, for which the activity in vivo result on BoNT/A LC is listed as “very minimal activity”. Regarding “2-(1-Cyano-2-phenylvinyl)benzimidazole [Compound 8a]”, the IC50 on Anthrax LF was more than 100 µM.
